Results as given in patent US20220356230A1.

Key:
Conditions in all cases: remark: other sources report otherwise
[1] = biological target: T1, SARS-COV-2-S RBD extracellular domain expressed with a C-terminal myc-myc-hexahistidine (SARS-COV-2 RBD-MMH) (SARS-CoV-2)
[2] = biological target: T2, Bt-SARS-CoV-2 Spike Protein (RBD)([…]).mFc (SARS-CoV-2)
[3] = biological target: T3, Bt-SARS-CoV-2 Spike Protein (RBD)([…]).hFc (SARS-CoV-2)
[4] = biological target: T1, SARS-COV-2-S RBD extracellular domain …; remark: listed apart in the source
[5] = biological target: SARS-CoV-2 Spike Protein (RBD)([…]).mmH (SARS-CoV-2); assay: Luminex bead assay, supernatant on antigen microspheres
[6] = biological target: SARS-CoV-2 Spike Protein (RBD)([…]).mmH (SARS-CoV-2); assay: as above; remark: listed apart in the source
[7] = biological target: SARS-CoV-2 Spike Protein (RBD)([…]).mmH (SARS-CoV-2)
[8] = biological target: T2, Bt-SARS-CoV-2 Spike Protein …; assay: Luminex bead assay, antibody supernatant, biotinylated antigen on microspheres
[9] = biological target: T3, Bt-SARS-CoV-2 Spike Protein …; assay: as above

Binder | t½ [1] | Binding signal (MFI) [2] | Binding signal (MFI) [3] | t½ [4] | Binding signal (MFI) [5] | Binding signal (MFI) [6] | Binding signal (MFI) [7] | Binding signal (MFI) [8] | Binding signal (MFI) [9]
mAb10967 (antibody) heavy: EVQLVESGGGLVQPGGSLRLSCAASGFTVSSNYMSWVRQAPGKGLEWVSVIYPGGSTFYADSVKGRFTISRDNSKNTLYLQMNSLRAEDTAVYYCARDQRDFAWGQGTLVTVSSASTKGPSVFPLAPSSKSTSGGTAALGCLVKDYFPEPVTVSWNSGALTSGVHTFPAVLQSSGLYSLSSVVTVPSSSLGTQTYICNVNHKPSNTKVDKKV[human IgG1 Fc left out here] light: DIQMTQSPSSLSASVGDRVTITCQASQDISNYLNWYQQKPGKAPKLLIYDASNLETGVPSRFSGSGSGTDFTFTISGLQPEDIATYYCQQYDNLPPTFGQGTRLEIKRTVAAPSVFIFPPSDEQLKSGTASVVCLLNNFYPREAKVQWKVDNALQSGNSQESVTEQDSKDSTYSLSSTLTLSKADYEKHKVYACEVTHQGLSSPVTKSFNRGEC | 38.8 min and 28.5 min | 16800 MFI | 24300 MFI | 38.8 min and 33.5 min | 26500 MFI | 28500 MFI |  |  | 
mAb10956 (antibody) heavy: EVQLVESGGGLVQPGGSLRLSCAASGLTVSSNYMSWVRQAPGKGLEWVSVIYSGGSTFYADSVKGRFTISRDNSKNTLYLQMNSLRAEDTAVYYCARDLIKYGMDVWGQGTTVTVSSASTKGPSVFPLAPSSKSTSGGTAALGCLVKDYFPEPVTVSWNSGALTSGVHTFPAVLQSSGLYSLSSVVTVPSSSLGTQTYICNVNHKPSNTKVDKKV[human IgG1 Fc left out here] light: DIQMTQSPSSLSASVGDRVTITCQASQDISNYLNWYQQKPGKAPKLLIYDASNLETGVPSRFSGSGSGTDFTFTISSLQPEDIATYYCQQYDNLPPHFGPGTKVDIKRTVAAPSVFIFPPSDEQLKSGTASVVCLLNNFYPREAKVQWKVDNALQSGNSQESVTEQDSKDSTYSLSSTLTLSKADYEKHKVYACEVTHQGLSSPVTKSFNRGEC | 0.5 min | 12900 MFI | 24500 MFI | 0.8 min | 25700 MFI | 27900 MFI |  |  | 
mAb10957 (antibody) heavy: EVQLVESGGGLVQPGGSLRLSCAASGVTVSSNYMSWVRQAPGKGLEWVSVIYSGGSTFYADSVKGRFTISRDNSKNTLFLQMNSLRIEDTAVYYCARDLGPYGMDVWGQGTTVTVSSASTKGPSVFPLAPSSKSTSGGTAALGCLVKDYFPEPVTVSWNSGALTSGVHTFPAVLQSSGLYSLSSVVTVPSSSLGTQTYICNVNHKPSNTKVDKKV[human IgG1 Fc left out here] light: DIQLTQSPSFLSASVGDRVTITCRASQGISSYLAWYQQKPGKAPKLLIYAASTLQSGVPSRFSGSGSGTQFILTISSLQPEDFATYYCQQLNSYPGFTFGPGTKVDIKRTVAAPSVFIFPPSDEQLKSGTASVVCLLNNFYPREAKVQWKVDNALQSGNSQESVTEQDSKDSTYSLSSTLTLSKADYEKHKVYACEVTHQGLSSPVTKSFNRGEC | 19.9 min and 14.6 min | 10600 MFI | 16700 MFI | 19.9 min and 15.1 min | 20600 MFI | 23400 MFI |  |  | 
mAb10913 (antibody) heavy: EVQLVESGGGLVQPGGSLRLSCAASGFTFRNYEMNWVRQAPGKGLEWVSYITSSGSTMYYADSVKGRFTISRDNAKNSLYLQMNSLRAEDTAVYYCARDGFYYYYAMDVWGQGTTVTVSSASTKGPSVFPLAPSSKSTSGGTAALGCLVKDYFPEPVTVSWNSGALTSGVHTFPAVLQSSGLYSLSSVVTVPSSSLGTQTYICNVNHKPSNTKVDKKV[human IgG1 Fc left out here] light: QSVLTQPPSVSAAPGQKVTISCSGSSSNIGNNYVSWYQQLPGTAPKLLIYDNNKRPSGIPDRFSGSKSGTSATLGITGLQTGDEADYYCGTWDSSLSVGRVFGTGTKVTVLGQPKAAPSVTLFPPSSEELQANKATLVCLISDFYPGAVTVAWKADSSPVKAGVETTTPSKQSNNKYAASSYLSLTPEQWKSHRSYSCQVTHEGSTVEKTVAPTECS | 0.3 min |  |  |  |  |  | 30700 MFI and 29200 MFI | 16600 MFI | 27500 MFI
mAb10937 (antibody) heavy: QITLKESGPTLVKPTQTLTLTCTFSGFSLSTNVVGVGWIRQPPGKALEWLALIYWNDDKRYSPSLKSRLTITKDTSKNQVVLTMTNMDPVDTATYYCAHGPTGDYFDYWGQGTLVTVSSASTKGPSVFPLAPSSKSTSGGTAALGCLVKDYFPEPVTVSWNSGALTSGVHTFPAVLQSSGLYSLSSVVTVPSSSLGTQTYICNVNHKPSNTKVDKKV[human IgG1 Fc left out here] light: [about 100 residues left out here][about 120 residues left out here] | 0.6 min and 0.7 min |  |  |  |  |  |  | 19700 MFI | 31500 MFI
mAb10914 (antibody) heavy: EVQLVESGGGLVQPGGSLRLSCAASGLIVSRNYMIWVRQAPGKGLEWVSVIYSGGSTFYADSVKGRFTISRHNSKNTLYLQMNSLRAEDTAVYYCARDLGTGGMDVWGQGTTVTVSSASTKGPSVFPLAPSSKSTSGGTAALGCLVKDYFPEPVTVSWNSGALTSGVHTFPAVLQSSGLYSLSSVVTVPSSSLGTQTYICNVNHKPSNTKVDKKV[human IgG1 Fc left out here] light: DIQLTQSPSFLSASVGDRVTITCWASQGISSYLAWYQQKPGKAPKLLIYAASTLQSGVPSRFSGSGSGTEFTLTISSLQPEDFATYYCQQLNSYPLTFGGGTKVEIKRTVAAPSVFIFPPSDEQLKSGTASVVCLLNNFYPREAKVQWKVDNALQSGNSQESVTEQDSKDSTYSLSSTLTLSKADYEKHKVYACEVTHQGLSSPVTKSFNRGEC |  |  |  |  |  |  | 32000 MFI and 29600 MFI | 16000 MFI | 26000 MFI
mAb10932 (antibody) heavy: EVQLVESGGGLVQSGGSLRLSCAASGLTVSSNYMSWVRQAPGKGLEWVSVIYSGGSTFYSDSVKGRFTISRHNSKNTLYLQMNSLRAEDTAVYYCARARGDAFDIWGQGTMVTVSSASTKGPSVFPLAPSSKSTSGGTAALGCLVKDYFPEPVTVSWNSGALTSGVHTFPAVLQSSGLYSLSSVVTVPSSSLGTQTYICNVNHKPSNTKVDKKV[human IgG1 Fc left out here] light: DIQMTQSPSSLSASVGDRVTITCQASQGISNYLNWYQQKPGKAPKLLISDASNLETGVPSRFSGSGSGTDFTFTISSLQPEDIATYYCQQYDNLRFFTFGPGTKVDIKRTVAAPSVFIFPPSDEQLKSGTASVVCLLNNFYPREAKVQWKVDNALQSGNSQESVTEQDSKDSTYSLSSTLTLSKADYEKHKVYACEVTHQGLSSPVTKSFNRGEC |  |  |  |  |  |  | 30000 MFI and 30100 MFI | 17700 MFI | 26200 MFI
mAb10986 (antibody) heavy: EVQLVESGGGLVQPGGSLRLSCAASEFTVSSNYMSWVRQAPGKGLEWVSVIYSGGSTFYADSVKGRFTISRDNSKNTLYLQMNSLRAEDTAVYYCARALPYGDLHFDYWGQGTLVTVSSASTKGPSVFPLAPSSKSTSGGTAALGCLVKDYFPEPVTVSWNSGALTSGVHTFPAVLQSSGLYSLSSVVTVPSSSLGTQTYICNVNHKPSNTKVDKKV[human IgG1 Fc left out here] light: QSVLTQPPSVSGAPGQRVTISCTGSSSNIGTGYDVHWYQQLPGTAPKLLIYGNTNRPSGVPDRFSGSKSGTSASLAITGLQAEDEADYYCQSYDSSLSDSYVFGTGTKVTVLGQPKAAPSVTLFPPSSEELQANKATLVCLISDFYPGAVTVAWKADSSPVKAGVETTTPSKQSNNKYAASSYLSLTPEQWKSHRSYSCQVTHEGSTVEKTVAPTECS |  | 15900 MFI | 23400 MFI |  |  |  |  |  | 

Several values for one entry are separate records, joined by “and”; a condition that tells them apart may be missing. Equal values may be shown once. Read-outs that look alike come from different tables or passages of the source.
